The values below come from patent publication US20260232822A1.

In assay [1] the target is T1, influenza hemagglutinin (HA) of H1N1 A/Puerto Rico/08/1934 influenza virus on infected MDCK London cells (Influenza A virus H1N1 A/Puerto Rico/08/1934), P03452.
The target in assay [2] is T1, influenza hemagglutinin (HA) of H1N1 …. The source holds these as a separate data set.

Like-named read-outs stand apart in the source and are kept apart here.

B1: 11729-HC-Cterm-45d (antibody)
heavy (part 1 of 2): QVQLVQSGAEVKKSGSSVKVSCKASGGTFSSYAISWVRQAPGQGLEWMGGIIPIFGTPSYAQKFQDRVTITTDESTSTVYMELSSLRSEDTAVYYCARQQPVYQYNMDVWGQGTTVTVSS
VL: DIQMTQSPSSLSASVGDRVTITCRASQGIRNNLGWYQQKPLKAPKRLIYAASSLQSGVPSRFSGSGSGTEFTLTISSLQPEDFATYYCLQYNNYPWTFGQGTKVEIK
modifications: not checked
B1 displayed a half-maximal effective concentration (EC50 (read off the curve)) in assay [1] of 4 nM.

B2: 11729-LC-Nterm-11 (mAb 11729 conjugated to compound 11 via LLQGA pentapeptide at the antibody light chain N-terminus) (antibody)
VH: QVQLVQSGAEVKKSGSSVKVSCKASGGTFSSYAISWVRQAPGQGLEWMGGIIPIFGTPSYAQKFQDRVTITTDESTSTVYMELSSLRSEDTAVYYCARQQPVYQYNMDVWGQGTTVTVSS
light: LLQGADIQMTQSPSSLSASVGDRVTITCRASQGIRNNLGWYQQKPLKAPKRLIYAASSLQSGVPSRFSGSGSGTEFTLTISSLQPEDFATYYCLQYNNYPWTFGQGTKVEIK
modifications: not checked
For the molecule B2, the EC50 (read off the curve) in assay [2] is 4 nM.

B3: 11729-LC-Cterm-11 (mAb 11729 conjugated to compound 11 via LLQGA pentapeptide at the antibody light chain C-terminus) (antibody)
VH: QVQLVQSGAEVKKSGSSVKVSCKASGGTFSSYAISWVRQAPGQGLEWMGGIIPIFGTPSYAQKFQDRVTITTDESTSTVYMELSSLRSEDTAVYYCARQQPVYQYNMDVWGQGTTVTVSS
light (part 1 of 2): DIQMTQSPSSLSASVGDRVTITCRASQGIRNNLGWYQQKPLKAPKRLIYAASSLQSGVPSRFSGSGSGTEFTLTISSLQPEDFATYYCLQYNNYPWTFGQGTKVEIK
modifications: not checked
B3 registered an EC50 (read off the curve) in assay [2] of 3 nM.
